PubChem BioAssay AID504761 – Drosophila RNAi Screening Center | 2011
The deposit covers about 22,000 reagents; shown is a random part of those with a known target gene and a result. Over the whole deposit, 116 (0.52%) were called active. 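Calls depend on retest data that are not deposited; infection was ranked per plate without normalising between plates; the unit of the infection score is not given.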 The raw values are shown without normalisation. Unmarked entries are inactive. Reagents against one gene are numbered here. Not all columns of the deposit are shown. The record does not give: the amount of reagent, the time to read-out.

Test: 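Insect host genes that dengue virus relies on to spread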 (primary screen)
System: D.Mel-2 cells from Drosophila
Knock-down reagent: long dsRNA against Drosophila genes
Treatment: infection with dengue virus type 2; dose and infection time not stated
Measurement: 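Per well on two replicate plates, imaging gave the percent of cells positive for viral envelope protein, ranked by infection, and a nuclear count of cells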
Direction: infection score: higher = more virus-infected cells; cell count: higher = more cells in the well
Call rule: 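Low infection ranks in the two replicates (chance level up to 0.065) followed by a retest with a 1.5-fold or larger significant decrease, p below 0.05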
Meaning of the calls: active = confirmed: knock-down lowers infection; inactive = not picked or not confirmed

Depletion of Cht11 #1 came out at: infection score, replicate 1 = 7.68; cell count, replicate 1 = 6273.
Cht11 #2 scored infection score, replicate 1 = 1.54; cell count, replicate 1 = 6805.
With knock-down of CG6870 #1 the results were infection score, replicate 1 = 11.9; cell count, replicate 1 = 5721.
After knock-down of CG6870 #2 the results were infection score, replicate 1 = 9.23; cell count, replicate 1 = 6425.

Entries listed so far whose gene name starts with C or c (4):
Cht11 #1 — infection score, replicate 1: 7.68; cell count, replicate 1: 6273
Cht11 #2 — infection score, replicate 1: 1.54; cell count, replicate 1: 6805
CG6870 #1 — infection score, replicate 1: 11.9; cell count, replicate 1: 5721
CG6870 #2 — infection score, replicate 1: 9.23; cell count, replicate 1: 6425

Next results:
Against CG13437 the deposit lists infection score, replicate 1 = 2.93; cell count, replicate 1 = 6241.
CG6481 showed infection score, replicate 1 = 18; cell count, replicate 1 = 5996.
Depletion of CG1894 gave: infection score, replicate 1 = 2.84; cell count, replicate 1 = 5640.
Silencing of CycC resulted in: infection score, replicate 1 = 12.4; cell count, replicate 1 = 4726.
Against dmrt99B #1, the entry reads infection score, replicate 1 = 0.85; cell count, replicate 1 = 6381.
Against dmrt99B #2, the values are infection score, replicate 1 = 3.65; cell count, replicate 1 = 6731.
Depletion of Usp32 resulted in: infection score, replicate 1 = 2.59; cell count, replicate 1 = 6446.
With knock-down of Dro, the screen gave infection score, replicate 1 = 14; cell count, replicate 1 = 6463.
